# Assays:
# [1] = system: Mycobacterium tuberculosis; conditions: isolate Praha 4
# [2] = system: Mycobacterium tuberculosis; conditions: isolate 234/2005
sequence,measurement,setting,value
GENTAMICIN,MIC>99,[1],0.5 µM
same,MIC>99,[2],0.25 µM

# Reference: ChEMBL document CHEMBL4043195, “Development of water-soluble 3,5-dinitrophenyl tetrazole and oxadiazole antitubercular agents” (Bioorg Med Chem, 2017)
